Anti-infective test results gathered from many reports (values: NIAID ChemDB through PubChem).

Shared fields: growth or infection tests; agent: Aspergillus niger

Conditions beyond the fields shown may differ between rows. Zone: diameter of growth inhibition. MIC50, MIC90 and the like: level of inhibition, or share of isolates inhibited. An empty or dashed field is not shown. Two numbers with a dash give a range or band.

smiles	strain	read by	endpoint	tested at	result
C=CCc1ccc(O)c(OC)c1	IOA-3	broth dilution	MFC		320 µg/mL
CCCCCOc1ccc(-c2ccc(-c3ccc(C(=O)N[C@H]4C[C@@H](O)[C@@H](O)NC(=O)[C@@H]5[C@@H](O)[C@@H](C)CN5C(=O)[C@H]([C@H](C)O)NC(=O)[C@H]([C@H](O)[C@@H](O)c5ccc(O)cc5)NC(=O)[C@@H]5C[C@@H](O)CN5C(=O)[C@H]([C@H](C)O)NC4=O)cc3)cc2)cc1			MIC90		0.015 µg/mL
Cc1cc(C)nc(Nc2ccccc2)n1			zone	1000 µg/mL	4 mm
CCCCCOc1ccc(-c2cc(-c3ccc(C(=O)N[C@H]4C[C@@H](O)[C@@H](O)NC(=O)[C@@H]5[C@@H](O)[C@@H](C)CN5C(=O)[C@H]([C@H](O)CC(N)=O)NC(=O)[C@H]([C@H](O)[C@@H](O)c5ccc(O)c(OS(=O)(=O)O)c5)NC(=O)[C@@H]5C[C@@H](O)CN5C(=O)[C@H]([C@@H](C)O)NC4=O)cc3)no2)cc1			MIC90		0.015 µg/mL
Cc1nc(Nc2ccccc2)nc2c1C(=N)C(C#N)CN(Cc1ccccc1)C2			zone	1000 µg/mL	2.1 mm
CC1=CC(=O)c2c(O)cccc2C1=O	CCAM 080002	broth dilution	MFC100		20 µg/mL
CCOC(=O)Cn1nnc(Cn2cc(C(C)=O)c3ccccc32)n1		agar	MIC99		110 µg/mL
CCC(C)n1ncn(-c2ccc(N3CCN(c4ccc(OC[C@H]5CO[C@](Cn6cncn6)(c6ccc(Cl)cc6Cl)O5)cc4)CC3)cc2)c1=O			MIC90		2 µg/mL
CC(=O)N1CCN(c2ccc(OC[C@H]3CO[C@](Cn4ccnc4)(c4ccc(Cl)cc4Cl)O3)cc2)CC1	ATCC 9029	broth dilution	MIC100		0.25 µg/mL
CC(=O)OCCOCCn1nnc(Cn2cc(C(C)=O)c3ccccc32)n1		agar	MIC99		160 µg/mL
COc1ccc(/C=C2\SC(N(C)C)=NC2=O)cc1	ATCC 9029	broth dilution	MIC100		>250 µg/mL
C[C@@H](c1ncncc1F)[C@](O)(Cn1cncn1)c1ccc(F)cc1F			MIC50		0.25–2 µg/mL
CN(C)C1=NC(=O)/C(=C/c2ccc([N+](=O)[O-])cc2)S1	ATCC 9029	broth dilution	MIC100		>250 µg/mL
Cc1cc(CBr)nc(Nc2ccccc2)n1			zone	1000 µg/mL	2.2 mm

2 of the rows above, restated:

smiles | strain | read by | endpoint | tested at | result
CCC(C)n1ncn(-c2ccc(N3CCN(c4ccc(OC[C@H]5CO[C@](Cn6cncn6)(c6ccc(Cl)cc6Cl)O5)cc4)CC3)cc2)c1=O |  |  | MIC90 |  | 2 µg/mL
CCCCCOc1ccc(-c2ccc(-c3ccc(C(=O)N[C@H]4C[C@@H](O)[C@@H](O)NC(=O)[C@@H]5[C@@H](O)[C@@H](C)CN5C(=O)[C@H]([C@H](C)O)NC(=O)[C@H]([C@H](O)[C@@H](O)c5ccc(O)cc5)NC(=O)[C@@H]5C[C@@H](O)CN5C(=O)[C@H]([C@H](C)O)NC4=O)cc3)cc2)cc1 |  |  | MIC90 |  | 0.015 µg/mL